# According to the supplement of paper PMC9931576:
# Human monoclonal antibodies against the spike receptor-binding domain (heavy:light variable regions). IC50 against pseudoviruses bearing the spike of naturally observed variants; lower = stronger; >10 µg/ml means not reached at the top dose. No active / inactive call. The stated detection limit is 0.0005 µg/ml; values near or below 0.001 µg/ml lie at the floor of the assay.
# Columns and labels:
# Experiment in all cases: pseudovirus neutralization IC50; higher = weaker neutralization
# [1] = target: SARS-CoV-2 Omicron BA.1 spike pseudovirus
# Procedure: (§1)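 Single-round VSV luciferase pseudovirus mixed with antibody dilutions for 1 h and put on Huh-7 cells for about a day; IC50 from the dose curve.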
# [2] = target: SARS-CoV-2 Omicron BA.2 spike pseudovirus
# Procedure: as §1
# [3] = target: SARS-CoV-2 Omicron BA.2.75 spike pseudovirus
# Procedure: as §1
# [4] = target: SARS-CoV-2 Omicron BA.5 spike pseudovirus
# Procedure: as §1
# [5] = target: SARS-CoV-2 Omicron BQ.1.1 spike pseudovirus
# Procedure: as §1
# [6] = target: SARS-CoV-2 Omicron XBB spike pseudovirus
# Procedure: as §1
# [7] = target: SARS-CoV-2 early D614G spike pseudovirus
# Procedure: as §1
Binder,pseudovirus neutralization IC50 [1],pseudovirus neutralization IC50 [2],pseudovirus neutralization IC50 [3],pseudovirus neutralization IC50 [4],pseudovirus neutralization IC50 [5],pseudovirus neutralization IC50 [6],pseudovirus neutralization IC50 [7]
BD55-1502 (protein) chain 1: QVQLQESGPGLMKPSQTLSLTCTVSGGSFSSGGSYWYWIRQHPGKGLEWIGYISYSGSTYYNPSLRSRLTISVDTSKNQFSLRLSSVTAADTALYYCARASGFGELGLDYWGQGTLVTVSS chain 2: DIQLTQSPSFLSASVGDRVTITCRASQGISSYLAWYQQKPGKAPKLLIYAASTLQSGVPSRFSGSGSGTEFTLTISSLQPEDFATYYCQQLNSYSITFGQGTRLEIK,> 10 µg/mL,> 10 µg/mL,> 10 µg/mL,> 10 µg/mL,> 10 µg/mL,> 10 µg/mL,0.00996 µg/mL
BD55-6712 (protein) chain 1: QERLVESGGGVVQPGRSLRLSCAASGLMFSSYAMFWVRQAPGKGLEWVAVISFDGSDKDYADSVKGRFTISRDNSKSTLFLQMNSMRVEDAGVYYCARDPLGFGPQSGGMDVWGQGTTVIVSS chain 2: DIQMTQSPSSLSASVGDRVTITCRASQRISTYLNWYQQKPGKAPKLLIYAASSLQRGVPSRFSGSGSGTDFTLTISSLQPEDFATYYCQESYSTRTFGQGTRVEI,> 10 µg/mL,> 10 µg/mL,> 10 µg/mL,> 10 µg/mL,> 10 µg/mL,> 10 µg/mL,> 10 µg/mL
BD55-1456 (protein) chain 1: EVQLVESGGGLVQPGGSLRLSCAVSGFTVSANYMSWVRQAPGKGLEWVSVIYSGGSTFYADSVKGRFTISRHNSQNTLYLQMNNLRPEDTAVYYCARDGRGDLWRHWGQGTLVTVSS chain 2: DIQMTQSPSSLSASVGDRVTITCQASQDIRNYLNWYQQKPGKAPKLLMYEASNLETGVPSRFSGSGSGTHFTFTIISLQPEDIATYYCQQYDNLPISFGGGTKVEIK,> 10 µg/mL,> 10 µg/mL,> 10 µg/mL,> 10 µg/mL,> 10 µg/mL,> 10 µg/mL,0.00702 µg/mL
BD55-6728 (protein) chain 1: EVQLVESGGGLVQPGGSLRLSCAASGFTFSRFAMHWVRQAPGKGLEYVSSISSNGGSTYYANSVKGRFTISRDNSKNTLYLQLGSLRPEDRAMYYCARESTEVTHWYFDLWGRGTLVTVSS chain 2: DIQMTQSPSSLSASLGDRVTITCRASQTISRYLNWYQQKPGKAPKVLIYAASSLQSGVPSRFSGSGSGTDFTLTISSLQPEDFATYYCQQSYVTPEYTFGQGTKVELK,> 10 µg/mL,> 10 µg/mL,> 10 µg/mL,> 10 µg/mL,> 10 µg/mL,> 10 µg/mL,> 10 µg/mL
BD55-1376 (protein) chain 1: QVQLVQSGAEVKKPGASVKVSCKASGYPFSYYTIHWVRQAPGQRLEWMGWINSGNGNTKYSQKFQGRVTITRDTSANTAYMELSGLTSEDTAFYYCAKVDSSGPAWFDPWGQGTLVTVSS chain 2: SYVLTQPPSVSVAPGKTARITCGGNNIGGKSVHWYQQKPGQAPILVIYYDSDRPSGIPERFSGSNSGNTATLTISRVEAGDEADYSCQVWDPSSDHPVFGGGTKLTVL,0.118 µg/mL,0.151 µg/mL,0.192 µg/mL,> 10 µg/mL,> 10 µg/mL,> 10 µg/mL,0.161 µg/mL
BD55-6719 (protein) chain 1: QVQLQESGPGLVKPSETLSLTCSVSGGSISDYYWSWIRQPPGKGLEWIGYIYYSGSTNYNPSLKSRVTISVDTPKRQFSLKLSSVTAADTAMYYCARVGWEPQAVRAFDIWGQGTMVTVSA chain 2: DIQMTQSPSTLSASVGDRVTITCRASQNILGWLAWYQQKPGKAPKLLIYKASSLDSGVPSRFSGSGSGTDFTLTISSLQPDDFATYYCQQYNTYSPLTFGGGTKVEIK,2.67 µg/mL,2.15 µg/mL,2.93 µg/mL,1.87 µg/mL,1.83 µg/mL,1.71 µg/mL,0.927 µg/mL
BD55-1412 (protein) chain 1: EVQLVESGGGLVQPGGSLRLSCAASGFTFNAYWMNWVRQAPGKGLEWVANVKLDGSEKYYMDSVKGRFAISRDNTKNLLYLQMNRLRTEDTAVYYCARATYYYGDFDHWGQGALVTVSS chain 2: NFMLTQPHSVSESPGKTITISCTRSSGSIAINYVQWYQQRPGSAPTTVIYEDNQRPSGVPDRFSGSIDSSSNSASLTISGLKTEDEADYYCQSYDGSNRYVFGTGTKVTV,2.71 µg/mL,> 10 µg/mL,> 10 µg/mL,> 10 µg/mL,> 10 µg/mL,> 10 µg/mL,0.259 µg/mL
BD-598 (protein) chain 1: EVQLVESGGGLIQPGGSLRLSCAASGLTVSSNYMSWVRQAPGKGLEWVSVIYSGGSTYYADSVKGRFTISRDNSTNTLYLQMNSLRAEDTAVYYCARDLDYYGMDVWGQGTTVTVSS chain 2: DIQLTQSPSSLSASVGDRVTITCRASQGISSYLAWYQQKPGKAPNLLIYAASTLQSGVPSRFSGSGSGTDFTLTISSLQPEDFATYYCQHLNSYPPITFGQGTRLEIK,> 10 µg/mL,> 10 µg/mL,> 10 µg/mL,> 10 µg/mL,> 10 µg/mL,> 10 µg/mL,0.0769 µg/mL
BD55-1421 (protein) chain 1: EVQLVESGGGLVQPGSSLRLSCVASGFKFNDYAMHWVRQAPGKGLEWVSGINWNSGSIAYADSVKGRFTISRENAKNSLHLRMNSLRAEDTAFYYCVKDIRGSGSYFPFDYWGQGTLVTVSS chain 2: SYVLTQPPSVSVAPGKTARITCGGNNIGSKSVHWYQQKPGQAPVLVMFDGGDRPSGIPERFSGSNSGNTATLTVSRVEAGDEAAYFCQVWDTSSNHWVFGGGTKVTVL,> 10 µg/mL,> 10 µg/mL,2.12 µg/mL,> 10 µg/mL,> 10 µg/mL,> 10 µg/mL,0.0036 µg/mL
BD55-6725 (protein) chain 1: EVQVVESGGGLVKPGGSLRLSCAASGFTFSSYTMNWVRQAPGKGLEWVSSITSSSTYIYYADSLKGRFTISRDDAKNSLYLQMNSLRAEDTAVYYCARDRFGEFIYPGALDIWGQGTLVTVSS chain 2: EIVLAQSPATLSLSPGERAILSCRASQSVNTYLAWYQQKPGQAPRLLIYDASNRATGIPARFSGGGSGTDFTLTISSLEPEDFAVYYCQQRSNWPLTFGQGTKVEIK,> 10 µg/mL,> 10 µg/mL,> 10 µg/mL,> 10 µg/mL,> 10 µg/mL,> 10 µg/mL,> 10 µg/mL
BD55-1374 (protein) chain 1: QVTLRESGPALVRPTQTLTLTCTFSGFSLTTRGLCVSWIRQSPGKALEWLARIDWDDDKYYSTSLRTRLTISKDTSKNQVVLTMTNVDTVDAATYFCARMTPAGPALDYWGQGTLVTVSS chain 2: DIQMTQSPSSLSASVGDRVTITCRASQSIRTYLNWYQQRPGKAPELLIFAASTLRSGVPSRFSGSGSGTDFTLTITGLQPEDFATYHCQQSFTTPRTFGQGTKVEIK,> 10 µg/mL,> 10 µg/mL,> 10 µg/mL,> 10 µg/mL,> 10 µg/mL,> 10 µg/mL,0.0285 µg/mL
BD55-1323 (protein) chain 1: EVQLVQSGAELKKPGESLRISCKGSGYSFTSFWITWVRQMPGKGLEWMGKIDPSESYTEYGPAFQGHVTISVDKSITTAYLQWSSLKASDTAIYYCARRVAGYHYGLDLWGQGTTVIVSS chain 2: DIQMTQSPSSLSASVGDRVTITCRASQDISHFLAWYQQKPGKVPNLLIYAASTLQSGVPSRFSGSGSGTDFTLTISSLQPEDVATYYCQKYNSAPPDTFGQGTKVEI,> 10 µg/mL,> 10 µg/mL,> 10 µg/mL,> 10 µg/mL,> 10 µg/mL,> 10 µg/mL,0.00187 µg/mL
BD55-6730 (protein) chain 1: QLQLQESGSGLVKPSQTLSLTCAVSGGSISSGAYSWSWIRQPPGKGLEWIGYIHHSGNTDYSPSLKSRVTISVDRSKNQFSLKLTSVTAADTAVYYCAREGLQLWPNAFDIWGQGTMVTVSS chain 2: DIQLTQSPSLLSASVGDRVTITCRASQDISSFLAWYQQKPGKAPKLLIYAASTLQSGVPSRFSGSGSGTEFTLTISSLQPEDFATYYCQQLNSYTTFGPGTKVDFK,> 10 µg/mL,> 10 µg/mL,> 10 µg/mL,> 10 µg/mL,> 10 µg/mL,> 10 µg/mL,> 10 µg/mL
